Laboratory results taken from the supplement of paper PMC7695840.
The entries are a selection whose mix differs from that of the whole data set.

Experiments:
[1] = system: Staphylococcus aureus MW2 delta-mecA (mecA-); test: normalized GFP fluorescence (growth of mecA- strain) (fraction of control range); higher = more growth of mecA- strain; settings: compound concentration: 150 uM; cefoxitin: subinhibitory; fluorescent label: GFP
In short: (§1)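 S. aureus MW2 cells, pre-induced, were used as a 1:1 mix of a DsRed strain carrying the gene and a GFP strain lacking it, in LB with a subinhibitory antibiotic dose set each day. At 5 µL/well they were placed onto 150 μM compound (1.5% DMSO) in 1536-well plates, one replicate, and kept unshaken for 20 h at 37 °C, 90% humidity. After DsRed (540/590) and GFP (485/520) reads scaled per plate to single-strain control medians, plates with high untreated ratios and rows with DsRed/GFP >10 were excluded.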

[2] = system: Staphylococcus aureus MW2 (mecA+); test: normalized DsRed fluorescence (growth of mecA+ strain) (fraction of control range); higher = more growth of mecA+ strain; settings: compound concentration: 150 uM; cefoxitin: subinhibitory; fluorescent label: DsRed
In short: as §1

O=P([O-])([O-])F.[Na+].[Na+]
normalized GFP fluorescence [1]: 0.412 | normalized DsRed fluorescence [2]: 1.11
